Each structure is given as a SMILES string.

By UniProt entry, the sequences of proteins in these tests, tags left out. Residues count along the entry.
UniProt P62593, 24-286 limits assumed: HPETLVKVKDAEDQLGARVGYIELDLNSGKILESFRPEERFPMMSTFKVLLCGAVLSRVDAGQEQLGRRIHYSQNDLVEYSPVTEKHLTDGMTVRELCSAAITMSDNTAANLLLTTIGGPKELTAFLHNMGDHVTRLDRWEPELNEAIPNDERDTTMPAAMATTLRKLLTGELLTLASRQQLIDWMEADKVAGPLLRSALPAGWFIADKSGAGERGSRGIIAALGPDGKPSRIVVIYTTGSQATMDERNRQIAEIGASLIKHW

This assay deals with TEM-1 β-lactamase from E. coli (Escherichia coli, UniProt P62593). In words: Inhibition of TEM-1 β-lactamase, spectrophotometric assay (FAP substrate). It is filed as biochemical. Particulars: read-out: Ki E. coli TEM-1; Tables 2A/2B; pH 7.0, 25° C., 100 μM FAP; N.I. = no inhibition observed at an inhibitor concentration of 100 μM.
For `O=C(O)c1ccc(B(O)O)cc1`, the Ki (usually a measure of affinity in units of concentration, obtained from inhibition or displacement) is above 100 µM.

On to `COc1ccc(B(O)O)cc1`, for which the Ki was above 100 µM. Next, `OB(O)c1ccc(F)cc1`: above 100 µM.

Source of the values: patent publication US6417174B1, “Inhibitors of β-lactamases and uses therefor” (Northwestern University, priority 1997, dated 2002).
